In PMC11345844, “Non-Covalent Inhibitors of SARS-CoV-2 Papain-Like Protease (PLpro): In Vitro and In Vivo Antiviral Activity” (Journal of Medicinal Chemistry, 2024):

System: SARS-CoV-2 Washington strain, Gamma (P.1) and Delta (B.1.617.2)

Cc1ccc(NC2CNC2)cc1C(=O)N[C@H](C)c1cccc(-c2ccc(CNC3CCCC3)s2)c1 [Compound 10]
activity against VOC Gamma (P.1) and Delta (B.1.617.2): did not lose activity
